Test results from US20100016367A1, “BIS-PYRINIDIUM COMPOUNDS” (priority 2006, published 2010).

Columns and labels:
[1] = system: C. neoformans ATCC 90112; experiment: Antifungal susceptibility assay, MIC; format: cell-based, Cryptococcus neoformans
[2] = system: C. albicans ATCC 10231; experiment: Antifungal susceptibility assay, MIC; format: cell-based, Candida albicans
[3] = system: C. albicans ATCC 90028; experiment: Antifungal MIC, broad spectrum; format: cell-based, Candida albicans; settings: Table 1b
[4] = system: C. krusei 04-202328; experiment: Antifungal MIC, broad spectrum; format: cell-based, Candida krusei; settings: Table 1b
[5] = system: C. krusei ATCC 6258; experiment: Antifungal MIC, broad spectrum; format: cell-based, Candida krusei; settings: Table 1b
[6] = system: C. parapsilosis 04-202398; experiment: Antifungal MIC, broad spectrum; format: cell-based, Candida parapsilosis; settings: Table 1b
[7] = system: C. parapsilosis ATCC 22019; experiment: Antifungal MIC, broad spectrum; format: cell-based, Candida parapsilosis; settings: Table 1b
[8] = system: C. glabrata 04-202345; experiment: Antifungal MIC, broad spectrum; format: cell-based, Candida glabrata; settings: Table 1b
[9] = system: C. tropicalis 04-202361; experiment: Antifungal MIC, broad spectrum; format: cell-based, Candida tropicalis; settings: Table 1b
[10] = system: C. neoformans 05-202523; experiment: Antifungal MIC, broad spectrum; format: cell-based, Cryptococcus neoformans; settings: Table 1b
[11] = system: C. gattii 05-200122; experiment: Antifungal MIC, broad spectrum; format: cell-based, Cryptococcus gattii; settings: Table 1b
[12] = system: A. fumigatus 05-203114; experiment: Antifungal MIC, broad spectrum; format: cell-based, Aspergillus fumigatus; settings: Table 1b
[13] = system: A. fumigatus ATCC 204305; experiment: Antifungal MIC, broad spectrum; format: cell-based, Aspergillus fumigatus; settings: Table 1b
[14] = system: A. flavus 05-203758; experiment: Antifungal MIC, broad spectrum; format: cell-based, Aspergillus flavus; settings: Table 1b
[15] = system: A. flavus ATCC 204304; experiment: Antifungal MIC, broad spectrum; format: cell-based, Aspergillus flavus; settings: Table 1b
[16] = system: A. terreus 05-202844; experiment: Antifungal MIC, broad spectrum; format: cell-based, Aspergillus terreus; settings: Table 1b
[17] = system: S. prolificans 05-203060; experiment: Antifungal MIC, broad spectrum; format: cell-based, Scedosporium prolificans; settings: Table 1b
[18] = system: S. apiospermum 05-203100; experiment: Antifungal MIC, broad spectrum; format: cell-based, Scedosporium apiospermum; settings: Table 1b
[19] = system: Absidia corymbifera 04-200170; experiment: Antifungal MIC, broad spectrum; format: cell-based; settings: Table 1b
[20] = system: Exophiala jeanselmei 03-200268; experiment: Antifungal MIC, broad spectrum; format: cell-based; settings: Table 1b
[21] = system: Exophiala spinifera 03-200803; experiment: Antifungal MIC, broad spectrum; format: cell-based; settings: Table 1b
[22] = system: Fusarium solani 04-203102; experiment: Antifungal MIC, broad spectrum; format: cell-based; settings: Table 1b
[23] = system: Paecilomyces lilacinus 05-200601; experiment: Antifungal MIC, broad spectrum; format: cell-based; settings: Table 1b
[24] = system: Rhizopus oryzae 05-203111; experiment: Antifungal MIC, broad spectrum; format: cell-based; settings: Table 1b
[25] = system: Cunninghamella berth 99-12187; experiment: Antifungal MIC, broad spectrum; format: cell-based, Cunninghamella bertholletiae; settings: Table 1b

Row | Compound | MIC C. albicans ATCC 10231 ([2]; Table 1) | MIC C. neoformans ATCC 90112 ([1]; Table 1b) | MIC C. albicans ATCC 10231 ([2]; Table 1b) | MIC C. albicans ATCC 90028 [3] | MIC C. krusei 04-202328 [4] | MIC C. krusei ATCC 6258 [5] | MIC C. parapsilosis 04-202398 [6] | MIC C. parapsilosis ATCC 22019 [7] | MIC C. glabrata 04-202345 [8] | MIC C. tropicalis 04-202361 [9] | MIC C. neoformans 05-202523 [10] | MIC C. gattii 05-200122 [11] | MIC A. fumigatus 05-203114 [12] | MIC A. fumigatus ATCC 204305 [13] | MIC A. flavus 05-203758 [14] | MIC A. flavus ATCC 204304 [15] | MIC A. terreus 05-202844 [16] | MIC S. prolificans 05-203060 [17] | MIC S. apiospermum 05-203100 [18] | MIC Absidia corymbifera 04-200170 [19] | also measured
1 | CCCCCc1cc[n+](CCCCCCCCCC[n+]2ccc(CCCCC)cc2)cc1 | 2.7 µM |  |  |  |  |  |  |  |  |  |  |  |  |  |  |  |  |  |  |  | MIC C. neoformans ATCC 90112 ([1]; Table 1): 11 µM
2 | CCCCCc1cc[n+](CCCCCCCCCCCC[n+]2ccc(CCCCC)c(C)c2)cc1C |  | 1.4 µM | 2.75 µM | 2.75 µM | 11 µM | 11 µM | 44 µM | 1.4 µM | 1.4 µM | 1.4 µM | 22 µM | 1.4 µM | 44 µM | 44 µM | 44 µM | 22 µM | 1.4 µM | 2.75 µM | 11 µM | 87.5 µM | MIC Exophiala jeanselmei 03-200268 [20]: 2.75 µM; MIC Exophiala spinifera 03-200803 [21]: 1.4 µM; MIC Fusarium solani 04-203102 [22]: 22 µM; MIC Paecilomyces lilacinus 05-200601 [23]: >87.5 µM; MIC Rhizopus oryzae 05-203111 [24]: 2.75 µM
3 | CCCCCc1cc[n+](CCOCCOCCOCC[n+]2ccc(CCCCC)cc2)cc1 |  |  |  |  |  |  |  |  |  |  |  |  |  |  |  |  |  |  |  |  | MIC C. neoformans ATCC 90112 ([1]; Table 1a): 44 to 88 µM; MIC C. albicans ATCC 10231 ([2]; Table 1a): >175 µM
4 | CC(C)(C)CCc1cc[n+](CCCCCCCCCCCC[n+]2ccc(CCC(C)(C)C)cc2)cc1 |  | 2.75 µM | 5.5 µM | 5.5 µM | 44 µM | 44 µM | 87.5 µM | 2.75 µM | 1.4 µM | 2.75 µM | 44 µM | 2.75 µM | >87.5 µM | >87.5 µM | >87.5 µM | >87.5 µM | 87.5 µM | 2.75 µM | 11 µM | >87.5 µM | MIC Cunninghamella berth 99-12187 [25]: >87.5 µM; MIC Exophiala jeanselmei 03-200268 [20]: 2.75 µM; MIC Exophiala spinifera 03-200803 [21]: 1.4 µM; MIC Fusarium solani 04-203102 [22]: >87.5 µM; MIC Paecilomyces lilacinus 05-200601 [23]: >87.5 µM; MIC Rhizopus oryzae 05-203111 [24]: 11 µM
5 | 1,12-bis[4-(1-pentene)pyiridinium]dodecane dichloride | 2.7 µM |  |  |  |  |  |  |  |  |  |  |  |  |  |  |  |  |  |  |  | MIC C. albicans ATCC 10231 ([2]; Table 1c): 2.75 µM
6 | CCCCCc1cc[n+](CCOCCOCCOCCOCC[n+]2ccc(CCCCC)cc2)cc1 |  |  |  |  |  |  |  |  |  |  |  |  |  |  |  |  |  |  |  |  | MIC C. neoformans ATCC 90112 ([1]; Table 1a): 88 µM; MIC C. albicans ATCC 10231 ([2]; Table 1a): >175 µM
